From article PMC12617615, “Decoding substrate recognition in malapain-2 through structural and mutational insights” (Computational and Structural Biotechnology Journal, 2025)

Tests used:
[1] = tested on: Cc1cc(=O)oc2cc(NC(=O)[C@H](CCCNC(=N)N)NC(=O)[C@H](CCCNC(=N)N)NC(=O)OCc3ccccc3)ccc12; assay: purified protein; conditions: 100 mM sodium acetate pH 5.0, 10 mM DTT, 37 °C, 20 nM enzyme, substrate range 0.1–100 μM
[2] = tested on: Cc1cc(=O)oc2cc(NC(=O)[C@H](CCCNC(=N)N)NC(=O)[C@H](CC(C)C)NC(=O)OCc3ccccc3)ccc12; assay: purified protein; conditions: 100 mM sodium acetate pH 5.0, 10 mM DTT, 37 °C, 20 nM enzyme, substrate range 0.1–100 μM

malapain-2 (MP-2) (Plasmodium malariae; T348I)
Km [1]: 469.5 ± 1.2 µM
Km [2]: 534 ± 1.9 µM

malapain-2 (MP-2) (Plasmodium malariae; E496D)
Km [1]: 289.1 ± 0.9 µM
Km [2]: 923.9 ± 0.9 µM

malapain-2 (MP-2) (Plasmodium malariae; T348A)
Km [1]: 448.4 ± 1.6 µM
Km [2]: 77.9 ± 1.3 µM

malapain-2 (MP-2) (Plasmodium malariae; E496D/T348I)
Km [1]: 674.4 ± 3.1 µM
Km [2]: 201.2 ± 6.1 µM

malapain-2 (MP-2) (Plasmodium malariae; E496A)
Km [1]: 393.7 ± 1.7 µM
Km [2]: 290.7 ± 2.1 µM
